From US20130178413A1, “HCV NS3 PROTEASE INHIBITORS” (priority 2010, published 2013)
Like-named read-outs stand apart in the source and are kept apart here.

Chains of the proteins cited; added tags and fusions are not shown. Lines headed by an entry give the natural chain unless they say otherwise; changes in a name come on top. Residues count along the entry.
UniProt P26663, 1658-1711 partner limits assumed: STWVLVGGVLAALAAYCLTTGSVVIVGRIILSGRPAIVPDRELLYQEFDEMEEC
UniProt P26663, 1027-1657 limits assumed: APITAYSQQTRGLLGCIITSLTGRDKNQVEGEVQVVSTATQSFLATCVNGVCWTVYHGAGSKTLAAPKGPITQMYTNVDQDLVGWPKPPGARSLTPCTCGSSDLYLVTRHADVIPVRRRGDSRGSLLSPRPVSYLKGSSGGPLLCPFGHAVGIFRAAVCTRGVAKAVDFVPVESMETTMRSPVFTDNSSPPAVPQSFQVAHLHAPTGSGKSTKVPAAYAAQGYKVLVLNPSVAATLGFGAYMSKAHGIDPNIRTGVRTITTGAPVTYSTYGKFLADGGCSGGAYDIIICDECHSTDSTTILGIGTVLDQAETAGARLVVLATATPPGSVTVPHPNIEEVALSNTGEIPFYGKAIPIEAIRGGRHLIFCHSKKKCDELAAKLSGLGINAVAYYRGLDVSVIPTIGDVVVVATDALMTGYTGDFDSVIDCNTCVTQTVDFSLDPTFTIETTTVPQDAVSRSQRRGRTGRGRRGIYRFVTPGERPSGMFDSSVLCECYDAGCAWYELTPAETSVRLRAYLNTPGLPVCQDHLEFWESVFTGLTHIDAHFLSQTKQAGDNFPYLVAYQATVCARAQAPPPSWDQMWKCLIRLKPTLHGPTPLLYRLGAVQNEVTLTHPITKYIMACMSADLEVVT
UniProt P26663, 1027-1657 A1182V limits assumed: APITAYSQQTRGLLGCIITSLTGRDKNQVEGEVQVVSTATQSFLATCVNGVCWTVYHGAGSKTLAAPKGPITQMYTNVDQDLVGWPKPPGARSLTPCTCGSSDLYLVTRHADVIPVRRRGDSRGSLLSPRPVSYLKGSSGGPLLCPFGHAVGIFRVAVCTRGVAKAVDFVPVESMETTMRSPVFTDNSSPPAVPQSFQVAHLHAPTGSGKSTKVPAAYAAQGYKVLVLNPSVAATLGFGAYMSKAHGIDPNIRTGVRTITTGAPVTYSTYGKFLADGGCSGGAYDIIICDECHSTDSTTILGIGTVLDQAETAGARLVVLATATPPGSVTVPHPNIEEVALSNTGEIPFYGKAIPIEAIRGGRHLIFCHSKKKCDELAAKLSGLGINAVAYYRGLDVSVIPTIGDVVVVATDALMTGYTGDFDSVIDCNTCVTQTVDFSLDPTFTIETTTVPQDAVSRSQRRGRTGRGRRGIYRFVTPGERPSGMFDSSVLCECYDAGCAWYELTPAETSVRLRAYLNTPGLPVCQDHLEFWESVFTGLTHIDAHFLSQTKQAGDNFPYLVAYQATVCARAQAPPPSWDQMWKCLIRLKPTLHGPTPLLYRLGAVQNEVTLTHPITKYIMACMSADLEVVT
UniProt Q81258, 1033-1663 limits assumed: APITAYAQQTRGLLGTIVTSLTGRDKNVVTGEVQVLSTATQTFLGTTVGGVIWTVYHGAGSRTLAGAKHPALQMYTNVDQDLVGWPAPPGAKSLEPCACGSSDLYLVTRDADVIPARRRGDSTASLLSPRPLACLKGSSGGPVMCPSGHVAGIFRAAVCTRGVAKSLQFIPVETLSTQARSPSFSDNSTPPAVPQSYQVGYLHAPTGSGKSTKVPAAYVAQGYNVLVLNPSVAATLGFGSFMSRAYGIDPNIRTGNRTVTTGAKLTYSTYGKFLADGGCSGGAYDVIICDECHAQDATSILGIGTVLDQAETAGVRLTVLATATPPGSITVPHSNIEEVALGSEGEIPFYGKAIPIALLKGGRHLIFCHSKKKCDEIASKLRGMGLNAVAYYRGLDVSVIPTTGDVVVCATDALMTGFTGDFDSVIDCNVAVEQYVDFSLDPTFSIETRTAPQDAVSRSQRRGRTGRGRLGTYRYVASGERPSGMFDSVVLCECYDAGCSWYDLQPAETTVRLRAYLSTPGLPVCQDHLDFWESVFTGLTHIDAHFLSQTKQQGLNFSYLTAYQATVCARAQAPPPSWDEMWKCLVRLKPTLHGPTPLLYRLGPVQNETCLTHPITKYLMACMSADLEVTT
UniProt Q81258, 1664-1717 partner limits assumed: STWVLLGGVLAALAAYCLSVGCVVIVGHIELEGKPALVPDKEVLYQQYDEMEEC

Experiments:
[1] = biological target: NS3/4A protease gt 1b A156V (Hepatitis C virus genotype 1b, UniProt P26663, A1182V); assay: HCV NS3 protease time-resolved fluorescence (TRF) assay, NS3/4A inhibitory activity (Ki), gt 1b A156V mutant; format: biochemical, hepatitis C virus (HCV); details: read-out: Enzyme Activity gt lb A156V Ki; genotype 1b A156V mutant NS3/4A
Procedure: (§1) The HCV NS3 protease inhibitory activity of the present compounds may be tested using assays known in the art. One such assay is HCV NS3 protease time-resolved fluorescence (TRF) assay as described below and in International Patent Application Publication WO2006/102087. Other examples of such assays are described in e.g., International Patent Application Publication WO2005/046712. HCV NS3 protease inhibitors, such as those described herein have a Ki less than 50 μM, such as less than 10 μM, and less than 100 nM. Ki is determined by an NS3 protease assay. The assay is performed in a final volume of 100 μl in assay buffer containing 50 mM HEPES, pH 7.5, 150 mM NaCl, 15% glycerol, 0.15% TRITON X-100, 10 mM DTT, and 0.1% PEG 8000. […] Product fluorescence is detected using either a VICTOR V2 or FUSION fluorophotometer (Perkin Elmer Life and Analytical Sciences) with excitation at 340 nm and emission at 615 nm with a 400 μs delay. […]
(§2) One such assay is HCV NS3 protease time-resolved fluorescence (TRF) assay as described below and in Mao et al., Anal Biochem. 373:1-8, 2008 and International Patent Application Publication WO 2006/102087. […] Product fluorescence is detected using either a VICTOR V2 or FUSION fluorophotometer (Perkin Elmer Life and Analytical Sciences) with excitation at 340 nm and emission at 615 nm with a 400 μs delay. […]

NS3/4A protease gt 3a = NS3/4A protease gt 3a (Hepatitis C virus genotype 3a, UniProt Q81258); assay: HCV NS3 protease time-resolved fluorescence (TRF) assay, NS3/4A inhibitory activity (Ki), gt 3a; format: biochemical; details: read-out: Enzyme Activity gt 3a Ki; genotype 3a NS3/4A
Procedure: as §1, §2

gt 1b Replicon = assay: HCV replicon assay, compound inhibitory potency (Replicon EC50)
Procedure: Measurement of inhibition by compounds was performed using the HCV replicon system. Several different replicons encoding different HCV genotypes or mutations were used. In addition, potency measurements were made using different formats of the replicon assay, including different ways of measurements and different plating formats. See Jan M. Vrolijk et al., A replicons-based bioassay for the measurement of interferons in patients with chronic hepatitis C, 110 J. VIROLOGICAL METHODS 201 (2003); Steven S. Carroll et al., Inhibition of Hepatitis C Virus RNA Replication by 2′-Modified Nucleoside Analogs, 278(14) J. BIOLOGICAL CHEMISTRY 11979 (2003). However, the underlying principles are common to all of these determinations, and are outlined below. […]
To initiate an assay, replicon cells were plated in the presence of a dilution series of test compound in the absence of G418. […] For direct quantitation, RNA levels were measured by ^32P-probe hybridization and protection, or in a TAQMAN based assay and normalized to cellular cyclophilin A RNA levels. In some cases, luciferase activity was measured using a conventional luciferase assay. In all cases EC50 determinations were calculated as a percent of a DMSO control by fitting the data to a four parameter fit function.

NS3/4A protease gt 1b = NS3/4A protease gt 1b (Hepatitis C virus genotype 1b, UniProt P26663); assay: HCV NS3 protease time-resolved fluorescence (TRF) assay, NS3/4A inhibitory activity (Ki), gt 1b; format: biochemical; details: read-out: Enzyme Activity gt 1b Ki; genotype 1b NS3/4A
Procedure: as §1, §2

C=C[C@@H]1C[C@]1(NC(=O)[C@@H]1C[C@@H]2CN1C(=O)[C@H](C1CCCC1)NC(=O)O[C@@H]1CCC[C@H]1CCCCCc1nc3ccccc3nc1O2)C(=O)NS(=O)(=O)C1CC1
Ki [1]: 8.2 nM
Ki (NS3/4A protease gt 3a): 2.7 nM
EC50 (gt 1b Replicon; read-out: gt 1b Replicon EC50 10% FBS, 10% Fetal Bovine Serum): 3.3 nM
EC50 (gt 1b Replicon; read-out: gt 1b Replicon EC50 50% NHS, 50% Normal Human Serum): 20 nM
Ki (NS3/4A protease gt 1b): 0.02 nM

C=C[C@@H]1C[C@]1(NC(=O)[C@@H]1C[C@@H]2CN1C(=O)[C@H](C1CCCC1)NC(=O)O[C@@]1(C)C[C@@H]1CC/C=C/Cc1c(nc3ccccc3c1O)O2)C(=O)NS(=O)(=O)C1CC1
Ki [1]: 30 nM
Ki (NS3/4A protease gt 3a): 21.8 nM
Ki (NS3/4A protease gt 1b): 0.5 nM
